In patent US11814416B2, “Polypeptide capable of passing through blood-brain barrier” (SHENZHEN RUIJIAN BIOSCIENCE TECHNOLOGY LIMITED COMPANY, dated 2023):

Biological target: Rat CaV2.2 channel (α1B splice variant e37a, auxiliary subunits α2δ1 and β3) (rat, UniProt Q02294)
Experiment: cell-based or functional assay

Binder	reduction of peak Ca2+ current (ICa) at 1 µM, whole-cell voltage clamp [%]
CKGKGAKCSRLMYDCCTGSCRSGKC [MVIIA (ziconotide)]	98.2
CKGKGAKCSRLMYDCCTGSCRSGKCYGRKKRRQRRR [MVIIA-a]	89.5
CKGKGAKCSRLMYDCCTGSCRSGKCGYGRKKRRQRRR [MVIIA-b]	91.7
CKGKGAKCSRLMYDCCTGSCRSGKCGGYGRKKRRQRRR [MVIIA-c]	98.8
CKGKGAKCSRLMYDCCTGSCRSGKCGGGYGRKKRRQRRR [MVIIA-d]	84.3
